Experimental data: PubChem BioAssay AID1259414 (Drosophila RNAi Screening Center, 2018)
The screen tested about 24,000 reagents; shown is a random part of those with a known target gene and a result. In the full data, about 1,210 (5%) are marked active. 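Inactive calls also include excluded dsRNAs with several or no targets, genes unexpressed in JW18, and well A1, regardless of score.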 Names joined by + are all predicted targets of the reagent.

- Aim: 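Genome-wide screen for host control of endosymbiont load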 (primary screen)
- Cells: Drosophila JW18 cells infected with Wolbachia
- Reagent: long dsRNA against Drosophila genes, 0.25 µg dsRNA per well of a 384-well plate
- Timing: 5 days
- Challenge: cells persistently infected with Wolbachia before knock-down; no added drug
- Detection: 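Imaged fluorescence in situ signal for Wolbachia 23S rRNA per DAPI-counted host cell, given as a robust z-score within each plate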
- Scale: Wolbachia per cell robust z: higher = more Wolbachia per host cell than the plate typical
- Active means: 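Hit when robust z is 1.5 or more, or -1.5 or less, in at least two of three replicates; excludes dsRNAs with several or no targets, genes not expressed in JW18 and well A1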

predicted target | DRSC id | Wolbachia per cell robust z, rep 1 | Wolbachia per cell robust z, rep 2 | Wolbachia per cell robust z, rep 3 | Outcome
BigH1 (Histone H1 variant BigH1) | DRSC15491 | -0.342 | 0.61 | -3.61 | inactive
BigH1 (Histone H1 variant BigH1) | DRSC27817 | -1.97 | -0.947 | -0.17 | inactive
sip2 (septin interacting protein 2) | DRSC03154 | -0.215 | -1.57 | 0.907 | inactive
DIP-iota (Dpr-interacting protein iota) | DRSC02140 | 1.52 | 0.444 | 1.21 | inactive
DIP-iota (Dpr-interacting protein iota) | DRSC23965 | 1.22 | 1.52 | 1.13 | inactive
Tnpo-SR (Transportin-Serine/Arginine rich) | DRSC00546 | 1.07 | 0.00183 | 0.691 | inactive
Dtg (Dpp target gene) | DRSC15998 | -1.97 | -0.188 | -0.487 | inactive
Dtg (Dpp target gene) | DRSC26947 | -0.746 | 1.6 | 0.697 | inactive
PsGEF (Protostome-specific GEF) | DRSC18596 | -1.52 | -0.456 | 0.108 | inactive
PsGEF (Protostome-specific GEF) | DRSC18600 | -0.188 | -0.561 | -1.41 | inactive
PsGEF (Protostome-specific GEF) | DRSC27549 | -0.419 | -0.771 | 0.0156 | inactive
CR33491 + CR33498 + CR33496 + 1 more | DRSC22969 | -4.08 | -1.73 | -0.682 | active
CG34204 | DRSC38895 | 0.482 | 0.46 | 0.178 | inactive
Ttc7 (Tetratricopeptide repeat domain 7) | DRSC04836 | -0.368 | -0.839 | -0.944 | inactive
COX7A (Cytochrome c oxidase subunit 7A) | DRSC16514 | 1 | -0.0404 | 0.48 | inactive
Cdc42 (Cell division cycle 42) | DRSC20228 | 0.784 | 0.773 | 1.77 | inactive
Cdc42 (Cell division cycle 42) | DRSC25134 | 1.49 | 1.42 | 2.4 | inactive
Gr32a (Gustatory receptor 32a) | DRSC02400 | -0.852 | -0.0152 | -6.54 | inactive
Lis-1 (Lissencephaly-1) | DRSC07459 | 0.371 | 0.11 | 1.04 | inactive
Lis-1 (Lissencephaly-1) | DRSC40803 | 1.09 | -0.117 | -0.646 | inactive
CG33758 | DRSC38885 | -0.461 | -0.817 | -0.841 | inactive
CG1513 | DRSC05194 | 1.54 | -1.79 | 1.42 | inactive
CG1513 | DRSC06553 | 0.517 | 0.517 | 0.523 | inactive
CG1513 | DRSC06554 | 0.333 | 0.508 | 0.587 | inactive
Klp98A (Kinesin-like protein at 98A) | DRSC16724 | -0.605 | -0.2 | -2.74 | inactive
Klp98A (Kinesin-like protein at 98A) | DRSC21834 | 0.647 | 0.262 | 0.051 | inactive
CG13373 | DRSC27059 | 0.437 | 0.477 | 3.13 | inactive
CG2070 | DRSC06814 | 0.172 | 0.743 | 0.836 | inactive
sigmar (salivary glands marred) | DRSC04449 | -1.92 | -0.883 | -2.03 | active
Lnk | DRSC16729 | 0.532 | 0.586 | 0.28 | inactive
CG42536 | DRSC41398 | -3.14 | -0.604 | -0.56 | inactive
CG4318 | DRSC19887 | 0.477 | -0.25 | 0.673 | inactive
CG2975 | DRSC37907 | 1.26 | 1.31 | 1.29 | inactive
fit (female-specific independent of transformer) | DRSC15280 | -0.641 | 0.723 | 0.54 | inactive
Snx1 (Sorting nexin 1) | DRSC00531 | 0.236 | 0.79 | 1.4 | inactive
CG12398 | DRSC19454 | -1.9 | -0.139 | -1.44 | inactive
BomBc2 (Bomanin Bicipital 2) | DRSC06502 | -0.477 | -3.6 | 0.751 | inactive
BomBc2 (Bomanin Bicipital 2) | DRSC29859 | 0.753 | -1.02 | 0.996 | inactive
wupA (wings up A) | DRSC20385 | -2.42 | -5.77 | -1.99 | inactive
wupA (wings up A) | DRSC22547 | 0.975 | 0.992 | 1.5 | inactive
wupA (wings up A) | DRSC29330 | -0.812 | 0.0922 | -1.4 | inactive
Had2 (beta Hydroxy acid dehydrogenase 2) | DRSC05971 | -0.00847 | -0.0642 | -2.72 | inactive
Had2 (beta Hydroxy acid dehydrogenase 2) | DRSC26955 | -2.24 | 0.601 | -0.134 | inactive
CG32846 | DRSC08012 | 1.1 | 0.265 | 0.356 | inactive
CG32846 | DRSC27074 | -0.351 | -0.527 | -0.644 | inactive
Gfrl (Glial cell line-derived neurotrophic family receptor-like) | DRSC15196 | 1.44 | 0.572 | -2.19 | inactive
Gfrl (Glial cell line-derived neurotrophic family receptor-like) | DRSC15197 | 0.671 | 0.741 | -1.41 | inactive
Gfrl (Glial cell line-derived neurotrophic family receptor-like) | DRSC15199 | 0.142 | 0.424 | 0.127 | inactive
Gfrl (Glial cell line-derived neurotrophic family receptor-like) | DRSC15565 | -0.263 | 0.592 | -0.205 | inactive
Gfrl (Glial cell line-derived neurotrophic family receptor-like) | DRSC15719 | 0.188 | 0.461 | 0.501 | inactive
Gfrl (Glial cell line-derived neurotrophic family receptor-like) | DRSC25385 | -0.51 | -0.301 | 0.18 | inactive
Gfrl (Glial cell line-derived neurotrophic family receptor-like) | DRSC26132 | -1.08 | 0.716 | -1.36 | inactive
Gfrl (Glial cell line-derived neurotrophic family receptor-like) | DRSC27810 | -1.36 | -1.13 | -1.17 | inactive
Gfrl (Glial cell line-derived neurotrophic family receptor-like) | DRSC28808 | 0.523 | -0.119 | -0.862 | inactive
Gycbeta100B (Guanylyl cyclase beta-subunit at 100B) | DRSC14039 | 1.05 | 0.58 | -0.316 | inactive
Gycbeta100B (Guanylyl cyclase beta-subunit at 100B) | DRSC14040 | -0.0596 | 0.923 | 0.377 | inactive
Gycbeta100B (Guanylyl cyclase beta-subunit at 100B) | DRSC16691 | -0.456 | 0.00824 | 0.461 | inactive
Gycbeta100B (Guanylyl cyclase beta-subunit at 100B) | DRSC28797 | 0.42 | 0.455 | 0.0782 | inactive
CR15345 (pseudo) | DRSC18030 | -0.561 | -1.1 | -0.0242 | inactive
CR15345 (pseudo) | DRSC22712 | -2.5 | 0.508 | 0.586 | inactive
PH4alphaNE2 (prolyl-4-hydroxylase-alpha NE2) | DRSC16544 | -1.36 | 0.423 | -0.0866 | inactive
PH4alphaNE2 (prolyl-4-hydroxylase-alpha NE2) | DRSC24689 | 1.31 | 0.27 | 0.584 | inactive
CG12307 | DRSC02159 | 0.425 | 0.804 | 0.176 | inactive
CG7202 | DRSC11818 | -0.38 | -0.904 | -1.78 | inactive
CG7202 | DRSC25884 | -0.604 | -0.43 | -0.0114 | inactive
CG31267 | DRSC15748 | -2.81 | -7.14 | 0.0383 | inactive
Ndae1 (Na[+]-driven anion exchanger 1) | DRSC00975 | 1.33 | 0.367 | 0.376 | inactive
Ndae1 (Na[+]-driven anion exchanger 1) | DRSC02770 | 0.185 | 0.22 | -0.013 | inactive
